Experimental findings from PubChem BioAssay AID504862 (Sanford-Burnham Center for Chemical Genomics, 2011) are described below.

The assay relates to diaphorase (Clostridium kluyveri). Briefly: diaphorase inhibitors and chemical oxidizers, confirmation, counter-screen for P. falciparum G6PD inhibitor project, biochemical, fluorescence intensity, 10 µM NADPH (AID 504862).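 Further: resorufin red fluorescence formed as diaphorase reduces resazurin using NADPH; 0% = DMSO with enzyme and 100% = DMSO without enzyme.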 The note with it: diaphorase-coupled resazurin reduction, NADPH 10 uM, at 20 µM, stronger effect = higher value.

Structures are written as SMILES. Only a part is listed here, and it is no random draw. Active and inactive are the calls of the source.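 How the source made its calls: active means average inhibition reaching 50% or more with the compound at 20 µM; inactive means the rest.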

Consider `O=[N+]([O-])c1cc([N+](=O)[O-])c(Nc2ccccn2)c([N+](=O)[O-])c1`, for which the inhibition is active: 50.5%.

By inhibition is commonly meant the change of the read-out against control, counted positive when it falls.
